The results in this text go back to patent US6514997B2, “Antipicornaviral compounds and compositions, their pharmaceutical uses, and materials for their synthesis” (Agouron Pharmaceuticals, Inc., priority 1999, dated 2003).

One data set relates to coxsackievirus B2 (CVB2). Description: Anticoxsackieviral cell culture assay (EC50), CVB2. The class given is cell-based.
Data set [1] deals with Coxsackievirus type B3 (CVB3). Description: Anticoxsackieviral cell culture assay (XTT, EC50), CVB3. The class given is cell-based, coxsackievirus B3 in H1-HeLa cells. As for the experimental part: (§1) Anticoxsackieviral Cell Culture Assay:
(§2) Coxsackievirus types A-21 (CAV-21) and B3 (CVB3) were purchased from American Type Culture Collection (ATCC, Rockville, Md.). Virus stocks were propagated and antiviral assays were performed in H1-HeLa cells (ATCC). Cells were grown in minimal essential medium with 10% fetal bovine serum (Life Technologies, Gaithersburg, Md.). The ability of the compounds of this invention to protect cells against either CAV-21 or CVB3 infection was measured by the XTT dye reduction method. This method is described in Weislow et al., J. Natl. Cancer Inst. (1989), vol. 81, 577-586. H1-HeLa cells were infected with CAV-21 or CVB3 at a multiplicity of infection (m.o.i.) of 0.025 or 0.075, respectively, or mock-infected with medium only. H1-HeLa cells were plated at 4×10^4 cells per well in a 96-well plate and incubated with appropriate concentrations of the test compound. One day (CVB3) or two days (CAV-21) later, XTT/PMS was added to test plates and the amount of formazan produced was quantified spectrophotometrically at 450/650 nm. The EC50 was calculated as the concentration of compound that increased the formazan production in compound-treated, virus-infected cells to 50% of that produced by compound-free, uninfected cells. The 50% cytotoxic dose (CC50) was calculated as the concentration of compound that decreased formazan production in compound-treated, uninfected cells to 50% of that produced in compound-free, uninfected cells. The therapeutic index (TI) was calculated by dividing the CC50 by the EC50.

Data set [2] concerns strains of human rhinovirus (HRV). Put plainly: Antirhinoviral H1-HeLa cell culture assay (XTT cell protection, EC50), other HRV strains. The class given is cell-based, human rhinovirus in H1-HeLa cells. As for the experimental part: Antirhinoviral H1-HeLa Cell Culture Assay:
In this cell protection assay, the ability of compounds to protect cells against HRV infection was measured by the XTT dye reduction method, which is described in Weislow et al., J. Natl. Cancer Inst. (1989), vol. 81, 577-586. H1-HeLa cells were infected with HRV-14 at a multiplicity of infection (m.o.i.) of 0.13 (virus particles/cell) or mock-infected with medium only. Infected or mock-infected cells were resuspended at 8×10^5 cells per mL, and incubated with appropriate concentrations of the compounds to be tested. Two days later, XTT/PMS was added to test plates and the amount of formazan produced was quantified spectrophotometrically at 450/650 nm. The EC50 value was calculated as the concentration of compound that increased the percentage of formazan production in compound-treated, virus-infected cells to 50% of that produced by compound-free, mock-infected cells. The 50% cytotoxic dose (CC50) was calculated as the concentration of compound that decreased the percentage of formazan produced in compound-treated, mock-infected cells to 50% of that produced by compound-free, mock-infected cells. The therapeutic index (TI) was calculated by dividing the CC50 value by the EC50 value.
All strains of human rhinovirus (HRV) for use in this assay were purchased from American Type Culture Collection (ATCC), except for HRV serotype-14 (produced from the infectious cDNA clone constructed by Dr. Robert Rueckert, Institute for Molecular Virology, University of Wisconsin, Madison, Wis.). HRV stocks were propagated and viral assays were performed in H1-HeLa cells (ATCC). Cells were grown in minimal essential medium with 10% fetal bovine serum, available from Life Technologies (Gaithersburg, Md.).

Data set [3] has as its system Coxsackievirus type A-21 (CAV-21). Description: Anticoxsackieviral cell culture assay (XTT, EC50), CAV-21. The class given is cell-based, coxsackievirus A-21 in H1-HeLa cells. As for the experimental part: as §1, §2
The subject of a further data set is coxsackievirus B5 (CVB5). Description: Anticoxsackieviral cell culture assay (EC50), CVB5. The class given is cell-based.
A further data set deals with HRV-14. Put plainly: Antirhinoviral H1-HeLa cell culture assay (XTT cell protection, EC50), HRV-14. The class given is cell-based, human rhinovirus (HRV) serotype-14 in H1-HeLa cells. The essentials: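 XTT dye reduction (450/650 nm) measured survival of H1-HeLa cells two days after HRV-14 infection at m.o.i. 0.13 in the presence of compound, giving EC50. The therapeutic index is CC50 divided by EC50.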

Another data set concerns echovirus 9 (ECHO-9). Put plainly: Anti-echoviral cell culture assay (EC50), ECHO-9. The class given is cell-based.
The test system of a further data set is echovirus 6 (ECHO-6). Description: Anti-echoviral cell culture assay (EC50), ECHO-6. The class given is cell-based.
In data set [4] the test system is Echovirus type 11 (ECHO 11). Put plainly: Anti-echoviral cell culture assay (XTT, EC50), ECHO 11. The class given is cell-based, echovirus 11 in MRC-5 cells. As for the experimental part:
Anti-Echoviral and Anti-Enteroviral Cell Culture Assays
Echovirus type 11 (ECHO 11) was purchased from ATCC (Rockville, Md.). Virus stocks were propagated and antiviral assays were performed in MRC-5 cells (ATCC). Cells were grown in minimal essential medium with 10% fetal bovine serum (Life Technologies, Gaithersburg, Md.). The ability of the compounds of this invention to protect cells against ECHO 11 infection was measured by the XTT dye reduction method (Weislow et al., J. Natl. Cancer Inst. (1989), vol. 81, 577-586). MRC-5 cells were infected with ECHO 11 at an m.o.i. of 0.003 or 0.004, respectively, or mock-infected with medium only. Infected or uninfected cells were added at 1×10^4 cells per well and incubated with appropriate concentrations of compound. Four days later, XTT/PMS was added to test plates, and the amount of formazan produced was quantified spectrophotometrically at 450/650 nm. The EC50 was calculated as the concentration of compound that increased the formazan production in compound-treated, virus-infected cells to 50% of that produced by compound-free, uninfected cells. The 50% cytotoxic dose (CC50) was calculated as the concentration of compound that decreased formazan production in compound-treated, uninfected cells to 50% of that produced in compound-free, uninfected cells. The therapeutic index (TI) was calculated by dividing the CC50 by the EC50. Activity of the compounds against enterovirus type 70 (EV 70) may be measured by the same assay as described above in this section. Enterovirus type 70 (EV 70) may be obtained from the American Type Culture Collection ATCC (Rockville, Md.).

Regarding `CCOC(=O)/C=C/[C@H](C[C@@H]1CCNC1=O)NC(=O)[C@H](CC)n1cccc(NC(=O)c2cc(C)on2)c1=O` [Compound 26, trans-(2′S,3″″S,4S)-4-(2′-{3″-[(5′″-Methylisoxazole-3′″-carbonyl)amino]-2″-oxo-2″H-pyridin-1″-yl}butyrylamino)-5-(2″″-oxopyrrolidin-3″″-yl)pent-2-enoic Acid Ethyl Ester], the TI is on record as over 181 in the data set on coxsackievirus B2 (CVB2); over 625 in data set [1]; over 714 in [2] (HRV-1A); over 625 in data set [2] (HRV-2); over 344 in data set [2] (HRV-3); over 222 in [2] (HRV-9). For the same compound, the TI in [2] (HRV-10) is over 370; in data set [2] (HRV-11), over 2500; in [2] (HRV-13), over 172; in data set [2] (HRV-16), over 200; in data set [2] (HRV-19), over 153; in data set [2] (HRV-23), over 250. In addition, the TI in data set [2] (HRV-25) is over 98; in [2] (HRV-39) it was over 212; in [2] (HRV-78) it was over 175; in [2] (HRV-87) it was over 476; in data set [2] (HRV-Hanks), over 185; in [3] it was over 82. In addition, the TI is recorded as over 555 with coxsackievirus B5 (CVB5); over 182 in the data set on HRV-14; over 666 in the data set on echovirus 9 (ECHO-9); over 588 in the data set on echovirus 6 (ECHO-6); over 277 in data set [4] (ECHO-11).

Regarding `C#CC[C@@H](C(=O)N[C@H](/C=C/C(=O)OCC)C[C@@H]1CCNC1=O)n1cccc(NC(=O)c2cc(C)on2)c1=O` [Compound 31, trans-(2′S,3″″S,4S)-4-(2′-{3″-[(5′″-Methyl-isoxazole-3′″-carbonyl)amino]-2″-oxo-2″H-pyridin-1″-yl}pent-4′-ynoyl-amino)-5-(2″″-oxopyrrolidin-3″″-yl)pent-2-enoic Acid Ethyl Ester], the TI with coxsackievirus B2 (CVB2) is over 175; in data set [1] it was over 416; in [2] (HRV-1A), over 277; in data set [2] (HRV-2), over 769; in [2] (HRV-3), over 476; in data set [2] (HRV-9), over 227. Also, the TI is on record as over 208 in data set [2] (HRV-10); over 2000 in data set [2] (HRV-11); over 166 in data set [2] (HRV-13); over 263 in data set [2] (HRV-16); over 200 in [2] (HRV-19); over 238 in [2] (HRV-23). Besides, the TI in [2] (HRV-25) is listed as over 114; in data set [2] (HRV-39), over 232; in data set [2] (HRV-78) it was over 163; in data set [2] (HRV-87) it was over 476; in data set [2] (HRV-Hanks) it was over 204; in data set [3] it was over 62. Further, the TI is over 212 in the data set on coxsackievirus B5 (CVB5); over 454 in the data set with HRV-14; over 833 in the data set with echovirus 9 (ECHO-9); over 476 in the data set with echovirus 6 (ECHO-6); over 769 in data set [4] (ECHO-11).

Turning to `Cc1cc(C(=O)Nc2cccn([C@@H](Cc3ccc(F)c(F)c3)C(=O)N[C@H](/C=C/C(=O)OC(C)C)C[C@@H]3CCNC3=O)c2=O)no1` [Compound 48, trans-(2′S,3″″″S,4S)-4-[3′-(3″,4″-Difluorophenyl)-2′-(3′″-{[1″″-(5′″″-methylisoxazol-3′″″-yl)methanoyl]amino}-2″″-oxo-2″″H-pyridin-1″″-yl)propanoylamino]-5-(2″″″-oxopyrrolidin-3″″″-yl)pent-2-enoic Acid Isopropyl Ester], the TI in the data set on coxsackievirus B2 (CVB2) is recorded as over 62; in data set [1], over 53; in data set [2] (HRV-1A), over 75; in data set [2] (HRV-2), over 208; in [2] (HRV-3), over 333; in data set [2] (HRV-9) it was over 91. Moreover, the TI in data set [2] (HRV-10) is recorded as over 117; in data set [2] (HRV-11), over 3333; in data set [2] (HRV-13), over 227; in data set [2] (HRV-16), over 277; in data set [2] (HRV-19), over 1111; in [2] (HRV-23), over 1000. The TI in data set [2] (HRV-25) is over 100; in data set [2] (HRV-39), over 227; in [2] (HRV-78), over 833; in [2] (HRV-Hanks), over 3333; in [3], over 8; in the data set on coxsackievirus B5 (CVB5), over 56. For the same compound, the TI in the data set with HRV-14 is reported as over 3333; in the data set with echovirus 9 (ECHO-9), over 175.

With `C#CC[C@@H](C(=O)N[C@H](/C=C/C(=O)OC1CCC1)C[C@@H]1CCNC1=O)n1cccc(NC(=O)c2cc(C)on2)c1=O` [Compound 53, trans-(2′S,3′″″S,4S)-4-[2′-(3″-{[1′″-(5″″-Methylisoxazol-3″″-yl)methanoyl]amino}-2′″-oxo-2′″H-pyridin-1′″-yl)pent-4″-ynoylamino]-5-(2′″″-oxopyrrolidin-3′″″-yl)pent-2-enoic Acid Cyclobutyl Ester], the TI in the data set with coxsackievirus B2 (CVB2) is over 64; in data set [1], over 64; in [2] (HRV-1A), over 78; in [2] (HRV-2), over 128; in data set [2] (HRV-3) it was over 227; in [2] (HRV-9) it was over 75. In addition, the TI in data set [2] (HRV-10) was over 270; in data set [2] (HRV-11), over 500; in [2] (HRV-13) it was over 63; in [2] (HRV-16), over 98; in data set [2] (HRV-19), over 188; in data set [2] (HRV-23), over 222. The TI in data set [2] (HRV-25) is recorded as over 151; in [2] (HRV-39), over 80; in data set [2] (HRV-78), over 250; in [2] (HRV-Hanks), over 72; in data set [3], over 21; with coxsackievirus B5 (CVB5), over 63. Besides, the TI in the data set with HRV-14 is over 250; in the data set with echovirus 9 (ECHO-9) it was over 384.

Consider `Cc1cc(CCCOc2c(C)cc(-c3noc(C(F)(F)F)n3)cc2C)on1` [Pleconaril, reference compound], for which the TI in data set [3] is listed as over 107; in the data set with HRV-14, over 1000; in [4] (ECHO-11 (EV-11)) it was over 62.
